In data set [1] the test system is multidrug-resistant Dd2 strain of Plasmodium falciparum (PfDd2). Kind of data set: Antiplasmodial SYBR Green I fluorescence assay, PfDd2 strain. The class given is cell-based. To be noted: SI = CC50 (RAW)/IC50 (PfDd2). The method, then: (§1) The parasite strains used in this study are continuously cultured at the Antimicrobial and Biocontrol Agents Unit of the University of Yaoundé I, and were graciously provided by BEI Resources (https://www.beiresources.org (accessed on 16 February 2019)). […]
(§2) The antiplasmodial efficacy of the samples was evaluated using the SYBR Green I-based fluorescence assay, as previously reported by Smilkstein et al., on a sorbitol-synchronized ring stage culture of Plasmodium falciparum (PfDd2 and Pf3D7 strains). The test relies on the development of intense fluorescence following SYBR green binding to the exposed DNA found in wells containing healthy cells. […] Fluorescence measurements were taken using an Infinite M200 microplate reader (Tecan, MT, USA) at emission and excitation wavelengths of 538 and 485 nm, respectively.
(§3) The resulting fluorescence readings were used to calculate the growth inhibition percentages relative to the negative control for each sample and for each of the tested doses. […] The resistance index (RI) for antiplasmodial tests was calculated as the ratio between the samples’ IC50 values for the chloroquine-sensitive strain 3D7 and the multiresistant strain Dd2 [69]. […] Based on each inhibitor’s antiparasitic efficacy (IC50) and cell toxicity (CC50), selectivity indices (SI) were calculated [SI = CC50 (RAW)/IC50 (Parasites)]. […]

Data set [2] has as its system chloroquine-sensitive 3D7 strain of Plasmodium falciparum (Pf3D7). Kind of data set: Antiplasmodial SYBR Green I fluorescence assay, Pf3D7 strain. Format: cell-based. To be noted: SI = CC50 (RAW)/IC50 (Pf3D7). The method, then:
as §1, §2, §3

The structures appear in SMILES notation. Where only a bound is given, the exact number is not on record here.

In the case of `CC1(C)CC[C@]2(C(=O)O)CC[C@]3(C)C(=CCC4[C@@]5(C)C[C@@H](O)[C@H](O)C(CO)(CO)C5CC[C@]43C)C2[C@@H]1O` (stereo partly drawn) [Bellericagenin B (2), bellericagenin B], the SI_PfDd2 in data set [1] is recorded as over 11.75. In data set [2], this compound gave an SI_Pf3D7 of over 3.81.

In data set [2], `COC(=O)[C@H](O)[C@@H]1[C@@]2(C)[C@H]3CC[C@@]4(C)[C@H](c5ccoc5)OC(=O)C[C@@]45O[C@H]4C(=O)[C@@]1(C)C[C@]2(OC(C)=O)[C@@H]4[C@@]35O` [Khayanolide E (6), khayanolide E] came in with an SI_Pf3D7 of 1.43.

The record behind these values is PMC10609173, “Antiplasmodial and Antileishmanial Activities of a New Limonoid and Other Constituents from the Stem Bark of Khaya senegalensis” (Molecules, 2023).
